The values below come from US10253035B2 (priority 2016, dated 2019).

For the assay, the system named is Mtb K204.
Turning to `CN(c1ccccc1)S(=O)(=O)c1ccc2[nH]c(=O)c(=O)[nH]c2c1` [Compound 31], the “effect on KAN resistance of Mtb K204 (in words)” value (from here on “effect on KAN resistance”) is on record as “did not overcome KAN resistance”.

Turning to `O=c1[nH]c2ccc(S(=O)(=O)Nc3ccccc3)cc2[nH]c1=O` [Compound 32], the “effect on KAN resistance” value is recorded as “inert in that assay”.

For `COc1ccccc1N(C)S(=O)(=O)c1ccc2[nH]c(=O)c(=O)[nH]c2c1` [Compound 36], the “effect on KAN resistance” value was “inert in that assay”.

For the compound `COc1cccc(N(C)S(=O)(=O)c2ccc3[nH]c(=O)c(=O)[nH]c3c2)c1` [Compound 39], the “effect on KAN resistance” value was “completely cancelling the effect of the Eis upregulation”.

In the case of `CCc1cccc(N(C)S(=O)(=O)c2ccc3[nH]c(=O)c(=O)[nH]c3c2)c1` [Compound 42], the “effect on KAN resistance” value was “did not produce compounds capable of overcoming KAN resistance”.

`CN(c1cccc(C(C)(C)C)c1)S(=O)(=O)c1ccc2[nH]c(=O)c(=O)[nH]c2c1` [Compound 45]: the “effect on KAN resistance” value is “did not produce compounds capable of overcoming KAN resistance”.

On to `COc1cc(N(C)S(=O)(=O)c2ccc3[nH]c(=O)c(=O)[nH]c3c2)cc2ccccc12` [Compound 47], for which the “effect on KAN resistance” value is listed as “loss of the effect on MICKAN”.
